For one assay, the system named is Candida albicans. Put plainly: Antifungal activity against Candida albicans ATCC 90029 assessed as reduction in fungal growth incubated for 24 hrs by CLSI broth microdilution method. A general note: Dilution methods test growth across graded concentrations, often in twofold steps.
A further assay relates to Rhizopus arrhizus. Put plainly: Antifungal activity against Rhizopus oryzae NBRC 4705 assessed as reduction in fungal growth incubated for 24 hrs by CLSI broth microdilution method.
Another assay relates to Aspergillus fumigatus. Put plainly: Antifungal activity against Aspergillus fumigatus NBRC 33022 assessed as reduction in fungal growth incubated for 24 hrs by CLSI broth microdilution method.
The test system of assay [1] is Cryptococcus neoformans. The assay is described as follows: Antifungal activity against Cryptococcus neoformans ATCC 90113 assessed as reduction in fungal growth incubated for 72 hrs by CLSI broth microdilution method. The settings on record: time 24.0 hrs.
Assay [2] relates to Cryptococcus neoformans. The assay is described as follows: Antifungal activity against Cryptococcus neoformans ATCC 14116 assessed as reduction in fungal growth incubated for 72 hrs by CLSI broth microdilution method. The format is functional.

In brackets after ≈: the same amount, converted by molar mass.

For the molecule `CC(=O)O[C@@H]1C[C@H]2O[C@@H]3C=C(C)CC[C@]3(C)[C@]1(C)[C@]21CO1`, the MIC was 0.125 µg/mL (≈ 0.428 µM) in the assay on Candida albicans, over 32 µg/mL in the assay with Rhizopus arrhizus, over 32 µg/mL in the assay with Aspergillus fumigatus and 2 µg/mL (≈ 6.84 µM) in the assay with Cryptococcus neoformans [1].
For `C/C=C/C=C/C(=O)O[C@@H]1[C@@H](O)[C@H]2O[C@@H]3C=C(C)CC[C@]3(C)[C@]1(C)[C@]21CO1`, the MIC90 in the assay with Cryptococcus neoformans [2] was found to be 6.3 µg/mL (≈ 17.5 µM).
On to `CC1=C[C@H]2O[C@@H]3[C@H](O)[C@@H](O)[C@](C)([C@@]2(C)CC1)[C@]31CO1`, for which the MIC90 with Cryptococcus neoformans [2] turned out to be 25 µg/mL (≈ 93.9 µM).
As to `C/C=C/C=C\C(=O)O[C@@H]1[C@@H](O)[C@H]2O[C@@H]3C=C(C)CC[C@]3(C)[C@]1(C)[C@]21CO1`, in the assay on Cryptococcus neoformans [2], the MIC90 was found to be 1.6 µg/mL (≈ 4.44 µM).

Broadly, the MIC is the least concentration at which growth counts as inhibited. As usually defined, the MIC90 is the lowest concentration that inhibits either 90% of growth or 90% of the strains tested, depending on the study.

(Values after ChEMBL document CHEMBL4665731, “Antifungal trichothecene sesquiterpenes obtained from the culture broth of marine-derived Trichoderma cf. brevicompactum and their structure-activity relationship” (2020).)
